From article PMC6602958, “Pharmacokinetics of anti-infectious reagents in silkworms” (Scientific Reports, 2019)

Legend:
Candida albicans [1] = assay: Antifungal activity (MIC) by micro dilution with or without silkworm hemolymph; assay type: cell-based; details: MIC with 10% hemolymph / MIC without hemolymph
Description: Antimicrobial and antifungal activities of each compound were measured by a micro dilution method[19],[20]. To measure protein binding to antifungal activity, silkworm hemolymph was collected by cutting the pseudopodium using scissors, and centrifuged at 3000 rpm for 5 min at 4 °C.

Candida albicans [2] = assay: Silkworm infection model with Candida albicans (ED50); assay type: in vivo, Bombyx mori (silkworm); details: ED50 against MIC in the absence of hemolymph

| Compound | MIC ratio (B/A) (Candida albicans [1]) | ED50/MIC(A) ratio (Candida albicans [2]) |
| --- | --- | --- |
| Clc1ccccc1C(c1ccccc1)(c1ccccc1)n1ccnc1 [Clotrimazole] | 33 | >250 |
| CC(=O)N1CCN(c2ccc(OCC3COC(Cn4ccnc4)(c4ccc(Cl)cc4Cl)O3)cc2)CC1 (stereo not shown) [Ketoconazole] | 33 | >250 |
